Measurements as given in US10106833B2, “Methods and compounds for identifying glycosyltransferase inhibitors” (priority 2012, dated 2018).
Several values for one entry are separate records, joined by “and”; a condition that tells them apart may be missing. Equal values may be shown once. Read-outs that look alike come from different tables or passages of the source.

Sequences of proteins named here, by UniProt entry; tags and fusion partners are left off.
UniProt P02919, whole entry: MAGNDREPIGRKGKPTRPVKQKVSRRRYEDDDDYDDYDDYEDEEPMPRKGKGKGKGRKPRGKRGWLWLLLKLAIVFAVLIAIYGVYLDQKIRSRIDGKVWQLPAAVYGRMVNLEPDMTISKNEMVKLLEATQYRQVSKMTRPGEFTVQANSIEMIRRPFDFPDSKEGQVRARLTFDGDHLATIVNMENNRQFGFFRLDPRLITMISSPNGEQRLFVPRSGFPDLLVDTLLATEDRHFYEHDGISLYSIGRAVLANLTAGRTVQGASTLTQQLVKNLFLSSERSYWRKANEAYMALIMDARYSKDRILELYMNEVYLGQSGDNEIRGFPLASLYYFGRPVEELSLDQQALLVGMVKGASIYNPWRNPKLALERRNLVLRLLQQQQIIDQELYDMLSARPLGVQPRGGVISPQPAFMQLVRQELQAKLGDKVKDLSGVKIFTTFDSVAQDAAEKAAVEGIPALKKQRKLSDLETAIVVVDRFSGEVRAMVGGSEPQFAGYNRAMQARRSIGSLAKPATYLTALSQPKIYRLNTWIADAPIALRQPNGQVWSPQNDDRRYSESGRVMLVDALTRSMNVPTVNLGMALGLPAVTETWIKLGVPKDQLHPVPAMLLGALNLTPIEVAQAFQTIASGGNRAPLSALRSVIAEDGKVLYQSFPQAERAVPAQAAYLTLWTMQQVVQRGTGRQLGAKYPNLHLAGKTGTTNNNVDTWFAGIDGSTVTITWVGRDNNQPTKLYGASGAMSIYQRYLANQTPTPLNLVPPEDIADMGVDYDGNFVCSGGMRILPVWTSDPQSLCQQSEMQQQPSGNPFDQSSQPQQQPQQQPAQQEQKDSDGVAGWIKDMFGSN
UniProt Q93Q23, whole entry: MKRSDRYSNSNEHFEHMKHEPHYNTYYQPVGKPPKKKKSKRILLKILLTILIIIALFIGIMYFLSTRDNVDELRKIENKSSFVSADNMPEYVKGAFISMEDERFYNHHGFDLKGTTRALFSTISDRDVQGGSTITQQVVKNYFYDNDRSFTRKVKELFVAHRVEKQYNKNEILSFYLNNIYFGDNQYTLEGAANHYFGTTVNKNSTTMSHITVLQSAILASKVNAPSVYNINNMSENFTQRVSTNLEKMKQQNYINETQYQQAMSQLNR

Experiments:
E. coli PBP1b [1] = molecular target: T1, E. coli PBP1b (Escherichia coli, UniProt P02919); assay: In vitro PGT inhibition, PG formation from 14C-lipid II; conditions: read-out: IC50 inhibition of PG formation, E. coli PBP1b 50 nM, lipid II 4 μM, tested form: NH4 salt
Experimental: (§1) A solutions of S. aureus SgtB (50 nM) in 12.5 mM HEPES (pH=7.5), 2 mM MnCl2, and 250 μM tween-80 (8 μL) were incubated with DMSO solutions containing the inhibitor of interest in different concentrations (1 μL) for 20 min. Then ^14C-labelled lipid II (1 μL, 40 μM, ^14C/^12C 1/3) was added and the polymerization reaction was allowed to proceed for 25 min at room temperature. The reaction was quenched with 10 μL of a solution of moenomycin (1 μM) in 10% triton-X reduced and the remaining lipid II was separated from peptidoglycan (PG) using paper strip chromatography (isobutyric acid/1M NH4OH 5/3). Using a scintillation counter the ratio of radioactivity in PG to total radioactivity was determined and plotted vs. inhibitor concentration. IC50s were determined using the curve fitting program GraphPad Prism 5.0 (GraphPad Software, Inc.; La Jolla, Calif., USA).
Solutions of the PGT (50 nM) in 50 mM HEPES (pH=7.5), 10 mM CaCl2, and […] PenG (8 μL) were incubated with DMSO solutions containing the inhibitor of interest in different concentrations (1 μL) for 20 min. Then ^14C-labelled lipid II (1 μL, 40 μM, ^14C/^12C 1/3) was added and the polymerization reaction was allowed to proceed for 25 min at room temperature. The reaction was quenched and processed as described above.

[2] = tested on: bacterial glycosyltransferase (E. coli PBP1b; E. faecalis PBP2a; S. aureus SgtB); assay: Assay validation: displacement of probe compound from enzyme (fluorescence polarization); conditions: 75 nM probe S16; test compound up to ca. 200 uM; tested form: NH4 salt
S. aureus SgtB [3] = molecular target: T2, S. aureus SgtB (Staphylococcus aureus, UniProt Q93Q23); assay: In vitro PGT inhibition, PG formation from 14C-lipid II; format: biochemical; conditions: read-out: IC50 inhibition of PG formation; S. aureus SgtB 50 nM, lipid II 4 μM; tested form: NH4 salt
Experimental: as §1

S. aureus SgtB [4] = assay: Fluorescence polarization probe competition (Ki); conditions: read-out: Ki (displacement of probe CMG121); probe CMG121 75 nM, S. aureus SgtB 0.2 μM; tested form: NH4 salt
Experimental: To equilibrated solutions containing 10 mM TRIS (pH=8.0), 100 mM NaCl, 75 nM S16, and bacterial glycosyltransferase (E. coli PBP1b c=0.1-0.15 uM; E. faecalis PBP2a c=0.38-0.46 uM; S. aureus SgtB c=0.2-0.25 uM) was added the test compound in DMSO or DMSO/H2O solutions (stock solutions were typically 2 mM) to obtain a final concentration of test compound of ca. 200 uM. These solutions were serially diluted (1/1 dilutions) into buffer containing 10 mM TRIS (pH=8.0), 100 mM NaCl, 75 nM Probe CMG121, and bacterial glycosyl transferase (E. coli PBP1b c=0.1-0.15 uM; E. faecalis PBP2a c=0.38-0.46 uM; S. aureus SgtB c=0.2-0.25 uM). After equilibration at 0° C. for 30 min the 20 μL of the solutions were transferred to a black 384 well plate (Corning NBS Low Volume) and fluorescence polarization (FP, ex: 480 nm; em: 535 nm) was measured using a Perkin Elmer Envision microplate reader. […]
A black 384 well plate (Corning NBS Low Volume No. 3820) was filled (10 μL per well) with an equilibrated solution containing 10 mM TRIS (pH=8.0), 100 mM NaCl, 75 nM disaccharide S15, and 1.0-1.5 μM S. aureus SgtB (depending on protein batch). […] The plate was incubated at 4° C. for 30 min and read with an Perkin Elmer EnVision microplate reader as described above. […]
For determination of the Ki, the average FP values were first converted to fluorescence anisotropy. […]

S. aureus SgtB [5] = molecular target: T2, S. aureus SgtB; assay: Enzyme titration with probe, fluorescence polarization (KD); format: binding; conditions: read-out: KD of probe; 75 nM probe, 10 mM TRIS pH 8.0, 100 mM NaCl, 0.3% DMSO, 0 °C; tested form: NH4 salt
Experimental: (§2) Solution containing 10 mM TRIS (pH=8.0), 100 mM NaCl, 0.3% DMSO, 75 nM S16, and bacterial glycosyltransferase (E. coli PBP1b c=2.2 uM; E. faecalis PBP2a c=5.1 uM; S. aureus SgtB c=2.1 uM) were allowed to equilibrate for 30 min at 0° C. and then serially diluted (1/1 dilutions) into buffer containing 10 mM TRIS (pH=8.0), 100 mM NaCl, 0.3% DMSO, and 75 nM S16. After equilibration at 0° C. for 30 min the 20 μL of the solutions were transferred to a black 384 well plate (Corning NBS Low Volume) and fluorescence polarization (FP, ex: 480 nm; em: 535 nm) was measured using a Perkin Elmer Envision microplate reader. Each series was performed in duplicate and the data was plotted FP vs. concentration of enzyme. For determination of the KD, the average FP values were converted to fluorescence anisotropy and fitted to the standard equation describing an equilibrium L+E<->LE (L=ligand; E=enzyme; LE=ligand enzyme complex) using GraphPad Prism 5.0 (GraphPad Software, Inc.; La Jolla, Calif., USA). The KD values for probe S16 are: E. coli PBP1b: 0.15; E. faecalis PBP2a: 0.38; […]

E. faecalis PBP2a = assay: as above; format: binding; conditions: read-out: KD of probe; 75 nM probe, 10 mM TRIS pH 8.0, 100 mM NaCl, 0.3% DMSO, 0 °C; tested form: NH4 salt
Experimental: as §2

E. coli PBP1b [6] = molecular target: T1, E. coli PBP1b; assay: as above; conditions: read-out: KD of probe; 75 nM probe, 10 mM TRIS pH 8.0, 100 mM NaCl, 0.3% DMSO, 0 °C; tested form: NH4 salt
Experimental: as §2

SMILES	IC50 (E. coli PBP1b [1])	Displacement of the probe compound (change in fluorescence polarization) on addition of test compound [2]	IC50 (S. aureus SgtB [3])	Ki (S. aureus SgtB [4])	Kd (S. aureus SgtB [5])	Kd (E. faecalis PBP2a)	IC50 (E. coli PBP1b [1]; listed as CMG12)	Kd (E. coli PBP1b [6])
CCCCCCCCCCCCCCCCOC(COP(=O)(O)OC1OC(C(N)=O)C(O)C(OC(N)=O)C1OC1OC(CO)C(O)C(O)C1NC(C)=O)C(=O)O (stereo not drawn)	1.5 µM and 1.54 µM	decrease in fluorescence polarization	0.048 µM	3.17 µM	–	–	–	–
CCCCCCCCCCCCCCCCOC(COP(=O)(O)OC1OC(C(N)=O)C(O)C(OC(N)=O)C1OC1OC(CO)C(OC2OC(CO)C(O)C(O)C2NC(=O)Cn2cc(CNC(=O)c3ccc4c(c3)C(=O)OC43c4ccc(O)cc4Oc4cc(O)ccc43)nn2)C(O)C1NC(C)=O)C(=O)O (stereo not drawn)	0.6 µM	–	–	–	0.18 µM	0.38 µM	0.65 µM	0.15 µM
